Laboratory results from PMC9178039.

What was measured:
[1] = tested on: phosphorylated CarR (RstA)-His6; experiment: EMSA; conditions: 30 mM acetyl phosphate, EMSA: 5 mM HEPES pH 7.9, 40 mM KCl, 1 mM DTT, 0.1 mM EDTA, 5% glycerol, 5 ng probe, 20 min, room …, recombinant protein, protein details: C-terminal His6 (pET28a), label: 6-FAM, probe letters rebuilt from the primers and the genome
[2] = tested on: phosphorylated CarR (RstA)-His6; experiment: competition with a labelled probe; conditions: 30 mM acetyl phosphate, unlabeled PalmE, shift lost at 100-fold excess, EMSA: 5 mM HEPES pH 7.9, 40 mM KCl, 1 mM DTT, 0.1 mM EDTA, 5% glycerol, 5 ng probe, 20 min, room temperature, recombinant protein, protein details: C-terminal His6 (pET28a), label: 6-FAM, probe letters rebuilt from the primers and the genome

Sequence: CTGTTTAACCCATAATGCAGGGGCATGTCGGTTAGCCTGAATAGCCGCCAAAATAGAGTGTCTTGTCTCGCAGTACATCGCCATTTTATTGATAAATTGGTTATGCACGACACCATAACCCTCTCTCTGTAACAAATCTGTCGCAGAATTGTATGGCATTGTCAGCTACCGAGCGCCCGACCTCCTTTCTATGGCGCGAAGGTCTACAACCTATAATCGCAACTAGTTGTCGAGCAACCGATTGACAATAGACATATCAAAATGGCGTTTCGTAGTGATCGCGTAGAAGCTTTCGGTCACCGCGTCCAGTGTTCCGTAATTGCACAGCCGTCCTGTTTCAATTTCATCTTGTACCACGACCTCGGGCACCACAGTGACGCCTTCCACATCGCGAGCCAATAGACGCAACATC (double strand) [PalmE]
- binding result [1]: binds
- binding result [2]: binds

Construct, isoform or probe ends are uncertain for at least one entry. For some assays here: At least one verdict rests on a figure or table, not on a statement of the authors.
